# HIV-1 NL4-3 point mutations in Vpr: replication capacity

Source: Al-Mawsawi et al. 2014 (doi:10.1186/s12977-014-0124-6), supplementary data.

Protein: Vpr of HIV-1 NL4-3, numbered from its first residue. The source prints no sequence; the chain below is taken from UniProt P12520, a closely related isolate, and fits the source at the 71 positions it covers.
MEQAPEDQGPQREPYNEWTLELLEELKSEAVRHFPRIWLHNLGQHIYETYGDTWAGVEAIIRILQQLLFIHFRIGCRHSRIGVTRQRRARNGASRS
"Other frame" gives the effect on an overlapping gene as the source lists it; other overlaps (genes, RNA elements) are not shown.

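Seven fragments of pNL4-3 were mutated by error-prone PCR, and each virus pool was passaged in CEM T cells. The RC index is the frequency of a change after passage round 2 divided by its frequency in the plasmid library.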

A higher RC index is a better tolerated change; approximate classes are lethal up to 0.1, attenuated to 0.2, tolerated above. A change reads original residue, position, new residue. Input reads are the counts in the plasmid library. Base changes are numbered along pNL4-3. The authors read an index above 1 as above wild type (1.9% of all changes in the genome). Clones carried about five changes per kilobase, which can drag down the index of neutral changes.

S28N (base G5641A, input reads 299) gave 0.241. With Y47H (base T5697C, input reads 186) the assay gave 0.194. W18R (base T5610C, other frame Vif silent, input reads 677) read 0.0530. For R90S (base A5828T, input reads 314) the result was 0.0576. For H40N (base C5676A, input reads 175) the result was 0.183.

For H71N (base C5769A, input reads 92) the result was 0.393. With E6K (base G5574A, other frame Vif silent, input reads 146) the assay gave 0.878. For Y50C (base A5707G, input reads 194) the result was 0.268. With K27E (base A5637G, input reads 310) the assay gave 0.116. T84A (base A5808G, input reads 200) gave 0.0995.

For V83A (base T5806C, input reads 360) the result was 0.111. A89P (base G5823C, input reads 100) gave 0.145. A89T (base G5823A, input reads 465) gave 0.253. N41I (base A5680T, input reads 343) read 0.0350. E24A (base A5629C, input reads 77) gave 0.0520.

For T49I (base C5704T, input reads 378) the result was 0.778. V31G (base T5650G, input reads 50) gave 0.200. V57M (base G5727A, input reads 310) read 0.116. With Q86K (base C5814A, input reads 81) the assay gave 0.0894. W38C (base G5672T, input reads 131) gave 0.107.

R95G (base A5841G, other frame Tat silent, input reads 194) gave 0.149. For R90G (base A5826G, input reads 532) the result was 0.252. L42S (base T5683C, input reads 341) gave 0.106. With V57L (base G5727C, input reads 34) the assay gave 0.118. With N16Y (base A5604T, other frame Vif silent, input reads 778) the assay gave 0.0577.

Q86R (base A5815G, input reads 424) gave 0.0683. For I37K (base T5668A, input reads 278) the result was 0.0432. C76F (base G5785T, input reads 38) read 0.381. For R87W (base A5817T, input reads 200) the result was 0.362. With E58G (base A5731G, input reads 474) the assay gave 0.0676.

R36T (base G5665C, input reads 44) read 0.136. For L22F (base C5622T, input reads 467) the result was 0.120. With L22I (base C5622A, input reads 107) the assay gave 0.206. For E29D (base A5645T, input reads 129) the result was 0.0931. Q44P (base A5689C, input reads 69) gave 0.0580.

S94C (base A5838T, other frame Tat silent, input reads 593) gave 0.513. For D52N (base G5712A, input reads 222) the result was 0.424. I81L (base A5799T, input reads 364) read 0.0348.

The opening 3 entries, copied out:

- S28N (base G5641A, input reads 299) -> 0.241
- Y47H (base T5697C, input reads 186) -> 0.194
- W18R (base T5610C, other frame Vif silent, input reads 677) -> 0.0530